# Target: Unchecked (UniProt O24855)
# Protein sequences, listed by entry. Tags and fused reporters are not part of them.
# UniProt O24855, whole entry, entry inferred from the test as described: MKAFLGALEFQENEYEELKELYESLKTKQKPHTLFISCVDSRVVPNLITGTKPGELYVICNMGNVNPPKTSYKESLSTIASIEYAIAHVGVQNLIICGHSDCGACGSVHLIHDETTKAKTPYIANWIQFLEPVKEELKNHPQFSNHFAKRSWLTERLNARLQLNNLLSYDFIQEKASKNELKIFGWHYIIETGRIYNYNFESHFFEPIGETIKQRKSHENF
# Experiment: Inhibition of Helicobacter pylori beta-carbonic anhydrase preincubated for 15 mins by stopped flow CO2 hydration assay
smiles,measurement,value
O=[As](O)(O)c1ccccc1 [PHENYLARSONIC ACID],Ki,92 µM

# From ChEMBL document CHEMBL2331417, “Kinetic and anion inhibition studies of a β-carbonic anhydrase (FbiCA 1) from the C4 plant Flaveria bidentis” (Bioorg Med Chem Lett, 2013)
